PubChem BioAssay AID720542 (National Center for Advancing Translational Sciences (NCATS), 2013)
The entries are a selection whose mix differs from that of the whole data set. The source made the active and inactive calls. Calls follow the shape of the dose curve; as a rule, active = well fitted inhibition curve with a large enough effect; inconclusive = small, poorly fitted or top-dose-only effect; inactive = no such curve, though single readings can be large or run the other way. Where a call stands in place of a potency, no number is given.

Test system: Plasmodium falciparum AMA1 (3D7) - RON2 peptide interaction
Assay: qHTS for Inhibitors of AMA1-RON; Towards Development of Antimalarial Drug Lead: Primary Screen; also: nearly all actives have a fitted effect of over 45% in size
Conditions: AlphaScreen AMA1-biotinylated RON2 peptide binding; series mostly up to 58.2 µM

Compound | Potency
Cc1ccc(OP(=O)(Nc2ccc([N+](=O)[O-])cn2)Oc2ccc(C)cc2)cc1 | inactive
[N-]=[N+]=NC1CCCCC1NC(=O)c1cc([N+](=O)[O-])cc([N+](=O)[O-])c1 (centres undefined) | inactive
Cc1ccc2nc3c(c(C)c2c1)CC(C(Cl)Cl)S3 (centres undefined) | inactive
NC(=O)Nc1ccc([As](=O)(O)O)cc1 | inactive
N#CCCN(C(=O)COC(=O)C(O)(c1ccccc1)c1ccccc1)c1ccc(F)cc1 | inactive
CCOP1(=S)c2c(C)nn(CCC#N)c2N=C(c2ccc(F)cc2)N1C (centres undefined) | inactive
CN(C(=O)Cc1ccccc1)[C@@H]1CC[C@]2(CCCO2)C[C@H]1N1CCCC1 | inactive
CN(C)C(=O)c1cc([N+](=O)[O-])cc2c1-c1c(cc([N+](=O)[O-])cc1[N+](=O)[O-])C2=O | inactive
O=[N+]([O-])c1ccc2c(c1)nnn2O | inactive
CN(C(=O)Cc1ccc(Cl)c(Cl)c1)[C@H]1CC[C@@]2(CCCO2)C[C@@H]1N1CCCC1 | inactive
CCOP1(=S)c2c(C)nn(CCC#N)c2N=C(c2ccccc2F)N1C (centres undefined) | inactive
O=P(Nc1nccs1)(c1ccccc1)c1nc2ccccc2s1 (centres undefined) | inactive
O=P(Nc1nccs1)(Oc1ccccc1)Oc1ccccc1 | inactive
CS(=O)(=O)c1cc([N+](=O)[O-])c2no[n+]([O-])c2c1 | inactive
O=C(O)COc1ccc([As](=O)(O)O)cc1[N+](=O)[O-] | inactive
Nc1ccccc1[As](=O)(O)c1ccccc1 | inactive
Nc1cccc2c([As](=O)(O)O)cccc12 | inactive
CCCOP(=S)(Nc1nc(N)cc(=O)[nH]1)OCCC | inactive
COc1cc(C2NCCC3(OCCO3)C2(C)C)cc(OC)c1OC (centres undefined) | inactive
CCOP(=O)(Nc1cccc2ccccc12)OCC | inactive
O=C(OC1CN2CCC1CC2)c1ccc(Cl)cc1 (centres undefined) | inactive
COc1cc(C(=O)NCC2(N3CCOCC3)CCCCC2)cc(Cl)c1OC(C)C | inactive
O=[As](O)(O)c1cccnc1 | inactive
CS(=O)(=O)c1ccc(Cl)c(NC(=O)COC(=O)C(O)(c2ccccc2)c2ccccc2)c1 | inactive
O=[As](O)(c1cccc(O)c1)c1cccc(O)c1 | inactive

Compound | Potency
Cc1cccc(OCC(=O)OC2CN3CCC2CC3)c1 (centres undefined) | inactive
COc1ccccc1CNC(=O)COC(=O)C(O)(c1ccccc1)c1ccccc1 | inactive
CN(C(=O)Cc1ccc(Cl)c(Cl)c1)[C@@H]1CCCC[C@H]1N1CCCC1 | inactive
CC(C)/C=N\N=C(\N)N[N+](=O)[O-] | inactive
CCC1=CC2Cc3nc4ccc(Cl)cc4c(N)c3C(C1)C2 (centres undefined) | inactive
O=P1(Nc2ccccn2)COc2ccccc2OC1 | inactive
CCOP(=O)(NC(=NC(C)c1ccccc1)NC(C)c1ccccc1)OCC (centres undefined) | inactive
CN(CCCl)Cc1cc(Cl)c(NC2=NCCN2)c(Cl)c1 | inactive
CCOP(=O)(Nc1ccc(C)cn1)OCC | inactive
Clc1n[nH]nc1-c1nn[nH][15n]1 | inactive
O=P1(N(CCCl)CCCl)NCCC(C(F)(F)F)O1 (centres undefined) | inactive
CC(C)(C)C(=O)NC(Sc1ncccn1)C(Cl)(Cl)Cl (centres undefined) | inactive
Cc1ccc(S(=O)(=O)N(CCCN)CCCc2c(C)nc(N)[nH]c2=O)cc1 | inactive
O=P1(Nc2ncccn2)COc2ccccc2OC1 | inactive
Nc1cccc([As](=O)(O)c2ccccc2)c1 | inactive
NS(=O)(=O)c1cccc(NC(=O)COC(=O)C(O)(c2ccccc2)c2ccccc2)c1 | inactive
O=P1(Nc2ccc(Br)cn2)COc2ccccc2OC1 | inactive
O=[As](O)(c1cccs1)c1cccs1 | inactive
Cc1ccc(OCC(=O)OC2CN3CCC2CC3)cc1 (centres undefined) | inactive
Cc1nn(-c2ccccc2)c2c1P(=O)(N1CCOCC1)N(C)C(c1ccccc1)=N2 (centres undefined) | inactive
Cc1ccc(C(=O)OC2CN3CCC2CC3)cc1 (centres undefined) | inactive
CC1CCC(C(C)C)C(OP(=O)(Nc2ccccn2)c2ccccc2)C1 (centres undefined) | inactive
CN(C)C1(CNC(=O)c2ccc(S(C)(=O)=O)cc2)CCCCC1 | inactive
CCCC1OP(=O)(Nc2ccccc2)OCC1CC (centres undefined) | inactive
